Pooled drug test results. Numbers come from NIAID ChemDB, via PubChem.

Common to all: growth or infection tests; agent: Candida albicans

Rows are shuffled and stem from different studies. A number after MIC or MFC names an inhibition level or a share of isolates. Blank or dashed fields: not listed here.

smiles	read by	strain	endpoint	conditions	value
Cc1cc(=O)oc2cc(OCC(O)Cn3cnc4ccccc43)cc(OCC(O)Cn3cnc4ccccc43)c12			MIC		>512 µg/mL
CN(C)CCSC(=S)NCc1ccc(-c2ccccc2)cc1			MIC		100 µg/mL
Cc1coc2c1C(=O)[C@@H]1[C@@](C)(C2)[C@H](O)CC[C@@]1(C)O	broth dilution	ATCC 90028	MIC		16 µg/mL
CCC(NC(=S)SCCN(C)C)c1ccccc1			MIC		20 µg/mL
Clc1ccc(C(Cn2ccnc2)OCc2csc3c(Cl)cccc23)c(Cl)c1			MIC		1.02 µg/mL
C[C@@H](c1ncncc1F)[C@](O)(Cn1cncn1)c1ccc(F)cc1F		Isolate 98-234	MIC		0.25 µg/mL
Clc1ccc(C(Cn2ccnc2)OCc2csc3c(Cl)cccc23)c(Cl)c1	absorbance	63 isolates	MIC50	48 h	0.5 µg/mL
CCC(C)CC(C)CCCCCCCCC(=O)NC1C[C@H](O)[C@@H](O)NC(=O)[C@@H]2C[C@@H](O)CN2C(=O)[C@H]([C@H](O)CC(N)=O)NC(=O)[C@H](C(O)[C@H](O)c2ccc(O)cc2)NC(=O)[C@@H]2C[C@@H](O)CN2C(=O)[C@H]([C@@H](C)O)NC1=O		MY1208	MFC		2 µg/mL
Cc1c(Sc2ccccc2)[n+](=O)c2cc(Cl)ccc2n1[O-]		Clinical isolate 17	MIC		31.25 µg/mL
CCC(C)CC(C)CCCCCCCCC(=O)NC1C[C@H](O)[C@@H](O)NC(=O)[C@@H]2[C@@H](O)[C@@H](C)CN2C(=O)[C@H]([C@H](O)CC(N)=O)NC(=O)[C@H](C(O)[C@H](O)c2ccc(O)cc2)NC(=O)[C@@H]2C[C@@H](O)CN2C(=O)[C@H]([C@@H](C)O)NC1=O		MY1055	MFC		0.125 µg/mL
CN1CCN(CCSC(=S)NCc2ccc(Cl)cc2)CC1			MIC		1000 µg/mL
C=C1/C=C(\C)[C@H](CC)OC(=O)[C@H](C)C(=O)C(O)(CO)C/C(OC)=C/[C@@H](C)C1		MY1055	MIC		6.25 µg/mL
Cc1c(Cl)[n+](=O)c2cc(Cl)ccc2n1[O-]		Clinical isolate 12	MIC		7.8 µg/mL
CCN(CC)CCSC(=S)NCc1ccccc1			MIC		10 µg/mL
CC1=C2C3=C4[C@](C)([C@@H]5C[C@@H]5[C@@]4(O)C[C@@H]4[C@]35OC(=O)C3=C5C[C@H]5[C@](O)(COC(=O)/C(C)=C/COC(=O)CCC(=O)OC3)[C@H]3C[C@H]3[C@]45C)[C@@H](O)[C@]2(O)OC1=O	broth dilution	ATCC 90028	MIC		8 µg/mL
CN(C)CCSC(=S)NCc1ccc(C(C)(C)C)cc1			MIC		1 µg/mL
CC1=C2C3=C4[C@](C)([C@@H]5C[C@@H]5[C@@]4(O)C[C@@H]4[C@]35OC(=O)C3=C5C[C@H]5[C@](O)(COC(=O)/C(C)=C/COC(=O)CCC(=O)OC3)[C@H]3C[C@H]3[C@]45C)[C@H](O)[C@]2(O)OC1=O	broth dilution	ATCC 90028	MIC		8 µg/mL
CCC(C)n1ncn(-c2ccc(N3CCN(c4ccc(OC[C@H]5CO[C@](Cn6cncn6)(c6ccc(Cl)cc6Cl)O5)cc4)CC3)cc2)c1=O		Isolate CA-3	MIC		>8 µg/mL
Cc1c(S(=O)(=O)c2ccccc2)[n+](=O)c2cc(Cl)ccc2n1[O-]		Clinical isolate 6	MIC		31.25 µg/mL
CC(=O)c1cc(CNC(=S)SCCN(C)C)c(C)cc1C			MIC		100 µg/mL
CCOc1cc2c(cc1F)n([O-])c(C)c(Cl)[n+]2=O		Clinical isolate 21	MIC		31.25 µg/mL
N=C(N)c1ccc(OCCCCCCOc2ccc(C(=N)N)cc2)cc1	agar diffusion / agar	Ca3	MIC		20 µg/mL
CC1=C2C(=O)c3c(C)coc3C[C@@]2(C)[C@H](O)C[C@H]1O	broth dilution	ATCC 90028	MIC		32 µg/mL
CN(C)CCSC(=S)NCc1ccc(Cl)cc1			MIC		40 µg/mL
CC(C)N=C(N)c1ccc2nc(-c3ccc4c(c3)Cc3cc(-c5nc6ccc(C(N)=NC(C)C)cc6[nH]5)ccc3-4)[nH]c2c1		Isolate CA1247	MFC		3.12 µg/mL
Cc1cc2ncn(CC(O)COc3cc(OCC(O)Cn4cnc5cc(C)c(C)cc54)c4c(C)cc(=O)oc4c3)c2cc1C			MIC		16 µg/mL
CCCCCCCCOc1ccc(C(=O)NC2C[C@@H](O)[C@@H](O)NC(=O)C3[C@@H](O)[C@@H](C)CN3C(=O)C(C(C)O)NC(=O)C([C@H](O)[C@@H](O)c3ccc(O)cc3)NC(=O)C3C[C@@H](O)CN3C(=O)C(C(C)O)NC2=O)cc1		CS	MIC		0.5 µg/mL
COc1cc(O)c2c(c1)C(=O)c1c(cc3c(c1O)-c1c(cc(C)c(C(=O)NC(C)C(=O)O)c1O)[C@H](OC1OC(C)C(N(C)C)C(OC4OCC(O)C(O)C4O)C1O)[C@H]3O)C2=O		IAM4888	MIC		6.3 µg/mL
C[C@@H](c1ncncc1F)[C@](O)(Cn1cncn1)c1ccc(F)cc1F		100 isolates	MIC50		≤0.06 µg/mL
CC[C@@H]([C@H](C)O)n1ncn(-c2ccc(N3CCN(c4ccc(OC[C@@H]5CO[C@@](Cn6cncn6)(c6ccc(F)cc6F)C5)cc4)CC3)cc2)c1=O		Isolate CA-11	MIC		>4 µg/mL
CCC(C)CC(C)CCCCCCCCC(=O)NC1CCCNC(=O)[C@@H]2[C@@H](O)[C@@H](C)CN2C(=O)[C@H]([C@H](O)CC(N)=O)NC(=O)[C@H](C(O)[C@H](O)c2ccc(O)cc2)NC(=O)[C@@H]2C[C@@H](O)CN2C(=O)[C@H]([C@@H](C)O)NC1=O		MY1750	MFC		2 µg/mL

2 of the rows above, restated:

{"smiles": "CCC(C)CC(C)CCCCCCCCC(=O)NC1CCCNC(=O)[C@@H]2[C@@H](O)[C@@H](C)CN2C(=O)[C@H]([C@H](O)CC(N)=O)NC(=O)[C@H](C(O)[C@H](O)c2ccc(O)cc2)NC(=O)[C@@H]2C[C@@H](O)CN2C(=O)[C@H]([C@@H](C)O)NC1=O", "strain": "MY1750", "endpoint": "MFC", "value": "2 µg/mL"}
{"smiles": "C[C@@H](c1ncncc1F)[C@](O)(Cn1cncn1)c1ccc(F)cc1F", "strain": "Isolate 98-234", "endpoint": "MIC", "value": "0.25 µg/mL"}